A mixed list of measured activities; the numbers were collected in NIAID ChemDB.

All rows: tests in culture; species: Aspergillus clavatus; read-out: MIC

An empty or dashed field is not shown.

SMILES	read by	strain or isolate	value
COc1ccc(-c2cc(-c3cc4cc(F)ccc4oc3=O)nc(NS(=O)(=O)c3ccccc3)c2C#N)cc1	turbidity	MTCC 1323	500 µg/mL
CCN1CCN(c2nc(NC(=S)N3CCN(C)C(c4ccccc4)C3)nc3ccccc23)CC1	agar / visual reading	MTCC 1323	3.12 µg/mL
Clc1nc(NC2CC2)nc(N2CCN(c3ccccc3)CC2)n1	agar	MTCC 1323	50 µg/mL
N#Cc1c(-c2cccc([N+](=O)[O-])c2)cc(-c2cc3cc(F)ccc3oc2=O)nc1NS(=O)(=O)c1ccccc1	turbidity	MTCC 1323	>1000 µg/mL
O=[N+]([O-])c1ccccc1NC(=S)Nc1nc(N2CCN(c3ccccc3)CC2)c2ccccc2n1	agar / visual reading	MTCC 1323	6.25 µg/mL
Cc1ccc(/C=C2/SC(=O)N(CC(=O)Nc3nc4ccc(SC#N)cc4s3)C2=O)cc1	broth dilution / visual reading	MTCC 1323	500 µg/mL
CCN1CCN(c2nc(NN=C3SCC(=O)N3c3cccc(Cl)c3)nc3ccccc23)CC1	agar / visual reading	MTCC 1323	200 µg/mL
COc1ccc(CN2CCN(c3nc(NCCNc4ncnc5c(Br)cc(Br)cc45)nc(NC4CC4)n3)CC2)c(OC)c1OC	agar	MTCC 1323	12.5 µg/mL
Cc1nn(-c2ccccc2)c2c1C(c1ccccc1)C(C#N)=C(N)O2	-	MTCC 1323	500 µg/mL
N#Cc1ccc(NC(=O)CSc2nnc(-c3ccc4ncccc4c3)o2)cc1	agar	-	100 µg/mL
Brc1cc(Br)c2ncnc(NCCNc3nc(NC4CC4)nc(N4CCN(c5ccccn5)CC4)n3)c2c1	agar	MTCC 1323	100 µg/mL
Cc1nn(-c2ccccc2)c2c1C(c1cccc([N+](=O)[O-])c1)c1c(nc(=S)[nH]c1N)O2	-	MTCC 1323	1000 µg/mL
N#Cc1ccc(Nc2nc(Oc3ncnc4ccccc34)nc(N3CCCCC3)n2)cc1C(F)(F)F	-	MTCC 1323	>100 µg/mL
N#CSc1ccc2nc(NC(=O)CN3C(=O)S/C(=C/c4ccccc4Cl)C3=O)sc2c1	broth dilution / visual reading	MTCC 1323	500 µg/mL
N#Cc1ccc(Nc2nc(Oc3cccc4cccnc34)nc(N3CCN(c4ccccc4)CC3)n2)cc1C(F)(F)F	agar	MTCC 1323	100 µg/mL
CS(C)=O	-	MTCC 1323	>100 µg/mL
CC1CC(C)CN(c2nc(Cl)nc(NC3CC3)n2)C1	agar	MTCC 1323	50 µg/mL
CCN1CCN(c2nc(NN=C3SCC(=O)N3c3ccccc3C)nc3ccccc23)CC1	agar / visual reading	MTCC 1323	12.5 µg/mL
CC(=O)Nc1ccc2nc(NC(=O)CSc3nnc(-c4ccc5ncccc5c4)o3)sc2c1	agar	-	50 µg/mL
N#CSc1ccc2nc(NC(=O)CN3C(=O)S/C(=C/c4cccc(Oc5ccccc5)c4)C3=O)sc2c1	broth dilution / visual reading	MTCC 1323	1000 µg/mL
CC(C)N1CCN(c2nc(Nc3ccc(C#N)c(C(F)(F)F)c3)nc(Oc3cccc4cccnc34)n2)CC1	agar	MTCC 1323	50 µg/mL
COc1ccccc1C1C(Cl)C(=O)N1NC(=O)c1cnc2c(ccc3[nH]c(Cl)cc(C)c32)c1=O	broth dilution	-	>1000 µg/mL
N#CSc1ccc2nc(NC(=O)CN3C(=O)S/C(=C/c4cccc(Br)c4)C3=O)sc2c1	broth dilution / visual reading	MTCC 1323	>1000 µg/mL
CC(=O)N1CCN(c2nc(Nc3ccc(C#N)c(C(F)(F)F)c3)nc(Oc3cccc4cccnc34)n2)CC1	agar	MTCC 1323	6.25 µg/mL
CCN1CCN(c2nc(Nc3ccc(C(=O)/C=C/c4cc(C)c(O)c(C)c4)cc3)nc3ccccc23)CC1	agar / visual reading	MTCC 1323	200 µg/mL
N#Cc1c(-c2ccc([N+](=O)[O-])cc2)cc(-c2cc3cc(F)ccc3oc2=O)nc1NS(=O)(=O)c1ccccc1	turbidity	MTCC 1323	100 µg/mL
Cc1nn(-c2ccccc2)c2c1C(c1ccccc1Cl)c1c(nc(=O)[nH]c1N)O2	-	MTCC 1323	>1000 µg/mL
O=C1CSC(=O)N1	broth dilution / visual reading	MTCC 1323	>1000 µg/mL
FC(F)(F)c1cccc(N2CCN(c3nc(NCCNc4ncnc5c(Br)cc(Br)cc45)nc(NC4CC4)n3)CC2)c1	agar	MTCC 1323	50 µg/mL
CCN1CCN(c2nc(Nc3ccc(C#N)c(C(F)(F)F)c3)nc(Oc3ncnc4ccccc34)n2)CC1	-	MTCC 1323	>100 µg/mL
Brc1cc(Br)c2ncnc(NCCNc3nc(NC4CC4)nc(N4CCC(Cc5ccccc5)CC4)n3)c2c1	agar	MTCC 1323	100 µg/mL
Cc1cccc(-c2cc(-c3cc4cc(F)ccc4oc3=O)nc(NS(=O)(=O)c3ccccc3)c2C#N)c1	turbidity	MTCC 1323	500 µg/mL
O=C(CSc1nnc(-c2ccc3ncccc3c2)o1)Nc1ccc(F)cc1	agar	-	50 µg/mL
Cc1cc(Cl)[nH]c2ccc3c(=O)c(C(=O)NN4C(=O)C(Cl)C4c4ccc(Cl)cc4)cnc3c12	broth dilution	-	500 µg/mL
CCN1CCN(c2nc(NC(=S)N3CCN(Cc4ccc(OC)c(OC)c4OC)CC3)nc3ccccc23)CC1	agar / visual reading	MTCC 1323	100 µg/mL
Brc1cc(Br)c2ncnc(NCCNc3nc(NC4CC4)nc(N4CCN(c5ncccn5)CC4)n3)c2c1	agar	MTCC 1323	12.5 µg/mL

For reference, 4 entries again:

SMILES	read by	strain or isolate	value
Brc1cc(Br)c2ncnc(NCCNc3nc(NC4CC4)nc(N4CCN(c5ncccn5)CC4)n3)c2c1	agar	MTCC 1323	12.5 µg/mL
CC(=O)N1CCN(c2nc(Nc3ccc(C#N)c(C(F)(F)F)c3)nc(Oc3cccc4cccnc34)n2)CC1	agar	MTCC 1323	6.25 µg/mL
CS(C)=O	-	MTCC 1323	>100 µg/mL
CCN1CCN(c2nc(NN=C3SCC(=O)N3c3ccccc3C)nc3ccccc23)CC1	agar / visual reading	MTCC 1323	12.5 µg/mL

Rows are shuffled and stem from different studies.